Measured values from several laboratories, pooled; numbers as filed in NIAID ChemDB.

All rows: tests in culture; species: Varicella zoster virus; read-out: EC50

Conditions beyond the fields shown may differ between rows. An empty or dashed field is not shown. a–b is a range or a potency band. ECn is the concentration giving n% inhibition of infection, replication or growth.

smiles,cell line,strain,value
O=c1[nH]c(=O)n([C@H]2C[C@H](O)[C@@H](CO)O2)cc1/C=C/Br,HEL 299,-,0.06 µM
O=C1O/C(=C\Cn2ccc(=O)[nH]c2=O)C(O)=C1O,HEL,TK-,>50 µg/mL
CCCCCc1ccc(-c2cc3cn([C@H]4C[C@H](Cl)[C@@H](CO)O4)c(=O)nc3o2)cc1,HEL,-,>5 µM
Nc1nc(NC2CC2)c2ncn(C=C3CC3CO)c2n1,HFF,-,13 µM
Cc1cccn2c(C3OCCS3)cnc12,HEL,YS,>1000 µM
COc1nc(N)nc2c1ncn2/C=C1/C[C@H]1CO,HFF,-,24 µM
CCOC(=O)/C=C\C=C\[C@H]1O[C@@H](n2ccc(=O)[nH]c2=O)[C@H](O)[C@@H]1O,HEL,OKA,10 µM
CC(C)(C)[Si](OC[C@H]1C[C@@H](Cn2cnc3c(N)ncnc32)c2cn(Cc3ccccc3)nc21)(c1ccccc1)c1ccccc1,HEL,TK-,1.5 µM
O=c1[nH]c(=O)n([C@H]2CO[C@@H](CO)O2)cc1/C=C/Br,HEL 299,-,21 µM
CCCCCc1ccc(-c2cc3cn([C@H]4C[C@H](O)[C@@H](CCl)O4)c(=O)nc3o2)cc1,HEL,-,>5 µM
Nc1nc2c(ncn2[C@H]2C=C[C@@H](CO)[C@H](O)C2)c(=O)[nH]1,-,KOS (TK-),5.8 µg/mL
CC(=O)N[C@H]1C[C@@H](n2cnc3c(N)ncnc32)[C@H](O)[C@@H]1O,HFF,-,>100 µg/mL
Nc1nc(N)c2ncn(C=C3CC3CO)c2n1,HFF,-,93 µM
CCCCCCCCc1cc2cn([C@H]3C[C@H](Cl)[C@@H](CO)O3)c(=O)nc2o1,HEL,-,>5 µM
OC[C@H]1CC(n2cnc3c(NC4CC4)ncnc32)C[C@@H]1CO,HEL,OKA,>100 µg/mL
Cc1cccn2c(C3SCCS3)cnc12,HEL,YS/R,>1000 µM
O=c1[nH]c(=O)n([C@H]2C[C@H](O)[C@@H](CO)O2)cc1/C=C/Br,HEF,OKA,0.003 µM
Nc1nc2c(ncn2COC(CO)CO)c(=O)[nH]1,-,-,1–10 µM
Nc1nc2c(ncn2COCCO)c(=O)[nH]1,HEL,ULF PE 9/84 (TK+),6.5–20 µM
CC(C)Nc1ncnc2c1ncn2C1C[C@H](CO)[C@@H](CO)C1,HEL,07/1 (TK-),>100 µg/mL
CCC/C=C/c1cccc(-c2cc3cn([C@H]4C[C@H](O)[C@@H](CO)O4)c(=O)nc3o2)c1,HEL,-,>12 µM
NC1=NC2C(C=CN2CC(CO)CCO)C(=O)N1,-,-,0.01–0.1 µM
O=C1OC(C(O)Cn2ccc(=O)[nH]c2=O)C(OCc2ccccc2)=C1OCc1ccccc1,HEL,TK+,>50 µg/mL
COc1cc(OC)c(NC(=S)Nc2ccc(NC(C)=O)cc2)cc1Cl,HFF,ELLEN,>20 µM
CCCCCCCCc1cc2cn([C@H]3C[C@H](F)[C@@H](CO)O3)c(=O)nc2o1,-,OKA,>20 µM
Nc1ncnc2c1ccn2[C@@H]1C[C@H](O)[C@@H](O)[C@H]1O,HEL,YS,>50 µg/mL
Cc1cc2nc3c4ccccc4n(CCN(C)C)c3nc2cc1C,HL,ULF,0.5–3 µM
Cc1cccn2c(C3OCCO3)cnc12,HEL,Strain 07/1,>1000 µM
Nc1nc2c(ncn2COC(CO)CO)c(=O)[nH]1,HEL,TK-,80 µM
O=c1[nH]c(=O)n(C2C[C@H](CO)[C@@H](CO)C2)cc1I,HEL,YS/R (TK-),>100 µg/mL
Nc1nc2c(ncn2[C@H]2C=C[C@@H](CO)CC2)c(=O)[nH]1,-,-,1–10 µM
O=C1O/C(=C\Cn2ccc(=O)[nH]c2=O)C(OCc2ccccc2)=C1O,HEL,TK+,>50 µg/mL
O=C(O)P(=O)(O)O,HEL,ULF PE 9/84 (TK+),150–300 µM
Nc1nc2c(ncn2[C@@H]2C=C[C@H](CO)CC2)c(=O)[nH]1,-,-,1–10 µM
Cc1ccn2c(C3OCCO3)cnc2c1,HEL,YS,>1000 µM
COC(=O)[C@H](C)NP(=O)(OCC1C/C1=C/n1cnc2c(=O)[nH]c(N)nc21)Oc1ccccc1,HFF,-,8.1 µM
CC(NC(=S)Nc1ccc(NC(=O)c2ccccc2F)c(C#N)c1)c1ccc(F)cc1,-,-,0.11 µM

A second listing of 3 rows from above:

smiles | cell line | strain | value
Cc1cccn2c(C3SCCS3)cnc12 | HEL | YS/R | >1000 µM
CC(C)(C)[Si](OC[C@H]1C[C@@H](Cn2cnc3c(N)ncnc32)c2cn(Cc3ccccc3)nc21)(c1ccccc1)c1ccccc1 | HEL | TK- | 1.5 µM
O=c1[nH]c(=O)n([C@H]2C[C@H](O)[C@@H](CO)O2)cc1/C=C/Br | HEF | OKA | 0.003 µM